## Zika virus NS2B-NS3: effect of single substitutions on growth in cell culture

From the data files of Ni et al. 2025, doi:10.1038/s41467-025-63602-z.

Protein: NS2B and the protease part of NS3 of Zika virus strain MR766. Positions count along the chain below; NS2B spans 2-131 and NS3 starts at 132.
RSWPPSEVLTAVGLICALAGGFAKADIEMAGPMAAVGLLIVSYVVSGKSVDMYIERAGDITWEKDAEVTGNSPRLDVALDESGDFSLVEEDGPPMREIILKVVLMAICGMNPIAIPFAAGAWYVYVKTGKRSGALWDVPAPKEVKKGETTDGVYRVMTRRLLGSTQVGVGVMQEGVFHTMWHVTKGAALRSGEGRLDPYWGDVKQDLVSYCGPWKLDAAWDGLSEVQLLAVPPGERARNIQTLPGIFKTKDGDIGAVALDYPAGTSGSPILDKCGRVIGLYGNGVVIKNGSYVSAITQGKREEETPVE

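Libraries of single mutants were passaged as virus pools on Huh-7.5 cells. The effect is the change in frequency of a mutant, normalised to wild type, as a mean of three replicate libraries (two for positions 207-308). The study looked for pockets that tolerate few changes, as a guide for inhibitor design.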

Values are log2 effects on growth: 0 is wild type, lower means poorer growth. Substitutions are written as wild-type residue, site number, new residue. This list holds changes to asparagine only.

substitution	log2 effect
G222N	-1.13
L223N	-1.60
S224N	-0.09
E225N	-5.31
V226N	-4.94
Q227N	-6.04
L228N	-5.41
L229N	-0.82
A230N	-4.13
V231N	-3.88
P232N	-5.05
P233N	-5.62
G234N	-0.68
E235N	-0.96
R236N	1.95
A237N	-1.71
R238N	0.06
I240N	-6.75
Q241N	-6.17
T242N	-5.67
L243N	-2.61
P244N	-4.28
G245N	-5.37
I246N	-5.21
F247N	-5.69
K248N	-6.73
T249N	-5.73
K250N	-6.72
D251N	-1.58
G252N	-5.44
D253N	-2.18
I254N	-6.23
G255N	-6.63
A256N	-5.70
V257N	-4.91
A258N	-5.26
L259N	-5.03
D260N	-4.23
Y261N	-3.60
P262N	-4.55
A263N	-2.41
G264N	-4.20
T265N	-4.53
S266N	-5.18
G267N	-5.57
S268N	-4.43
P269N	-4.60
I270N	-4.45
L271N	-3.32
D272N	-1.37
K273N	-3.15
C274N	-0.04
G275N	-1.90
R276N	-1.85
V277N	-3.54
I278N	-5.20
G279N	-4.60
L280N	-4.75
Y281N	-5.73
G282N	-4.65
G284N	-4.39
V285N	-4.27
V286N	-5.12
I287N	0.56
K288N	-5.88
G290N	-5.30
S291N	-3.81
Y292N	-4.96
V293N	-4.57
S294N	-5.07
A295N	-4.84
I296N	-4.42
T297N	-3.78
Q298N	-4.31
G299N	-4.57
K300N	-6.59
R301N	-4.84
E302N	-0.97
E303N	-1.64
E304N	-1.08
T305N	-0.46
P306N	-2.79
V307N	-1.38
E308N	1.66

The first 4 entries again:

substitution	log2 effect
G222N	-1.13
L223N	-1.60
S224N	-0.09
E225N	-5.31

Positions 1-103, 104-206 and 207-308 were made and measured as separate libraries. Values above 0 are not proof of better growth: six high scorers were tested one by one, five grew less well than wild type and one about as well. The authors count -1 or higher as tolerated. Position 1 is the last residue of NS2A.